Compound potency records, mixed from different reports. Data source: NIAID ChemDB in PubChem.

Common to all: whole-cell or culture tests; species: HIV-1; cell line: CEM; measure: fold resistance

Neighbouring rows are from separate reports. Blank or dashed fields: not listed here. Fold resistance has wild type as its base.

| structure | strain or isolate | changes | read by | value |
|---|---|---|---|---|
| CCOCn1c(Cc2ccccc2)c(C(C)C)c(=O)[nH]c1=O | IIIB | RT-E138K | syncytia | 18 |
| CCOCn1c(Cc2ccccc2)c(CC)c(=O)[nH]c1=O | IIIB BHAP(RT-L100I) | RT-L100I | syncytia | 22.5 |
| CCc1cc(NCc2nc3c(Cl)ccc(Cl)c3o2)c(=O)[nH]c1C | IIIB-TSAO-m3T(10)(RT-Y181C) | RT-Y181C | syncytia | 2.33 |
| O=c1[nH]cnc2c1ncn2[C@H]1CC[C@@H](CO)O1 | IIIB TIBO R82913 STR-1 (RT L100I Y181C) | RT-L100I Y181C | syncytia | 3 |
| CCN1C(=O)N(Cc2ccccc2)S(=O)(=O)c2cscc21 |  | RT-L100I | syncytia | 3.64 |
| Cc1ccnc2c1NC(=O)c1cccnc1N2C1CC1 |  | RT-K103N | cytopathic effect | 69 |
| CC[C@H]1C(=O)Nc2ccc(F)cc2N1C(=O)OC(C)C | NNRTI-resistant | RT-V106A | cytopathic effect | 35.7 |
| CCc1cc(NCc2nc3c(Cl)ccc(Cl)c3o2)c(=O)[nH]c1C | IIIB | RT-C181I | syncytia | >750 |
| Fc1cccc(F)c1C1SCc2nc3ccccc3n21 | IIIB | RT-L100I | cytopathic effect / XTT | 2.24 |
| Cc1cn([C@@H]2O[C@H](CO[Si](C)(C)C(C)(C)C)[C@@]3(OS(=O)(=O)C=C3N)[C@H]2O[Si](C)(C)C(C)(C)C)c(=O)[nH]c1=O | IIIB | RT-E138K | syncytia | 92 |
| Cc1c(Sc2ccccc2)n(COCCO)c(=O)[nH]c1=O | IIIB HEPT-resistant (RT Y188H) | RT-Y188H | syncytia | ≥33.3 |
| Cc1c(N)nc(N)nc1OCCOCP(=O)(O)O | Clinical isolate C19 | RT-M41L V118I L210W T215Y | syncytia | 8.5 |
| O=C1N(Cc2ccccc2)c2cscc2S(=O)(=O)N1Cc1ccccc1 |  | RT-Y181C | syncytia | >5.78 |
| N#CCN1C(=O)N(Cc2ccccc2)S(=O)(=O)c2cscc21 | IIIB | RT-K103N | syncytia | >250 |
| Cc1occc1C(=S)Nc1ccc(Cl)c(/C=N/OC(C)(C)C)c1 | IIIB | RT-V106A | p24 | 2.6 |
| Nc1cc(OCCOCP(=O)(O)O)nc(N)n1 | Clinical isolate DE434.4 | RT-K65R S68G T69I V75T Q151M | syncytia | 6.8 |
| Fc1cccc(F)c1C1SCc2nc3ccccc3n21 |  | RT-Y181C | cytopathic effect | 9.93 |
| Cc1cn([C@H]2C[C@H](N=[N+]=[N-])[C@@H](CO)O2)c(=O)[nH]c1=O |  | RT-Y181C | cytopathic effect | 2.7 |
| CCN1C(=O)N(Cc2ccccc2)S(=O)(=O)c2cscc21 | IIIB | RT-E138K | syncytia | >207 |
| Nc1nc2c(ncn2[C@H]2CC[C@@H](CO)O2)c(=O)[nH]1 | MN-QUIN(RT-G190E) | RT-G190E | syncytia | 0.25 |
| Cc1cn([C@@H]2O[C@H](CO[Si](C)(C)C(C)(C)C)C3(OS(=O)(=O)C=C3N)[C@H]2O[Si](C)(C)C(C)(C)C)c(=O)n(C)c1=O | IIIB-Nevirapine(0.1)(RT-Y181C) | RT-Y181C | syncytia | 26 |
| CCN1C(=O)N(Cc2cccc(Cl)c2)S(=O)(=O)c2cscc21 |  | RT-K103N | syncytia | >50.9 |
| CCNc1cccnc1N1CCN(C(=O)c2cc3cc(OC)ccc3[nH]2)CC1 | IIIB TIBO R82913-resistant (RT K103N) | RT-K103N | syncytia | 85 |
| Cc1cn([C@@H]2O[C@H](CO[Si](C)(C)C(C)(C)C)C3(OS(=O)(=O)C=C3N)[C@H]2O[Si](C)(C)C(C)(C)C)c(=O)n(C)c1=O | IIIB | RT-V106A | syncytia | 91.7 |
| CC(C)Nc1cccnc1N1CCN(C(=O)c2cc3ccccc3[nH]2)CC1 | IIIB | RT-C181I | syncytia | >187.5 |
| CC(C)=CCN1Cc2cc(Cl)cc3[nH]c(=S)n(c23)C[C@@H]1C | IIIB TIBO R82913-resistant (RT K103N) | RT-K103N | syncytia | 215 |
| CC[C@H]1C(=O)Nc2ccc(F)cc2N1C(=O)OC(C)C | B-1 (RT L100V K103R/K Y188H) | RT-L100V K103R/K Y188H | cytopathic effect | 8 |
| Cc1cn([C@@H]2O[C@H](CO[Si](C)(C)C(C)(C)C)C3(OS(=O)(=O)C=C3N)[C@H]2O[Si](C)(C)C(C)(C)C)c(=O)n(C)c1=O | NNRTI-resistant | RT-Y181C | cytopathic effect | >180 |
| O=c1[nH]cnc2c1ncn2[C@H]1CC[C@@H](CO)O1 | IIIB-Pyridinone(0.1)(RT-V179N | RT-V179N | syncytia | 1.74 |
| Cc1occc1C(=S)Nc1ccc(Cl)c(C(=O)OC2CCCC2)c1 | IIIB | RT-V106A | syncytia | 8 |
| Nc1ncnc2c1ncn2CC(CF)OCP(=O)(O)O | IIIB TIBO R82913 STR-2 (RT K103N) | RT-K103N | syncytia | 0.667 |
| Cc1occc1C(=S)Nc1ccc(Cl)c(/C=N/OC(C)(C)C)c1 | IIIB | RT-K103N | syncytia | ≥20 |
| Cc1cn([C@@H]2O[C@H](CO[Si](C)(C)C(C)(C)C)[C@@]3(OS(=O)(=O)C=C3N)[C@H]2O[Si](C)(C)C(C)(C)C)c(=O)[nH]c1=O | IIIB TSAO-T(RT-E138K) | RT-E138K | syncytia | 133 |
| Fc1cccc(F)c1C1SCc2nc3ccccc3n21 |  | RT-L100I | cytopathic effect | 2.24 |
| Fc1cccc(F)c1[C@@H]1SCc2nc3ccccc3n21 | IIIB | RT-Y188C | cytopathic effect / XTT | 2.5 |
| Cc1cn([C@@H]2O[C@H](CO[Si](C)(C)C(C)(C)C)C3(OS(=O)(=O)C=C3N)[C@H]2O[Si](C)(C)C(C)(C)C)c(=O)n(C)c1=O | IIIB | RT-G190E | p24 | >2080 |
| Cc1cn([C@@H]2O[C@H](CO[Si](C)(C)C(C)(C)C)C3(OS(=O)(=O)C=C3N)[C@H]2O[Si](C)(C)C(C)(C)C)c(=O)n(C)c1=O | IIIB TIBO R82913-resistant (RT K103N) | RT-K103N | syncytia | 5 |
| Cc1cn([C@@H]2O[C@H](CO[Si](C)(C)C(C)(C)C)C3(OS(=O)(=O)C=C3N)[C@H]2O[Si](C)(C)C(C)(C)C)c(=O)n(C)c1=O | IIIB | RT-Y181C | syncytia | 66 |
| Cc1occc1C(=S)Nc1ccc(Cl)c(/C=N/OC(C)(C)C)c1 | IIIB | RT-Y181C | cytopathic effect | 1.88 |
| Fc1cccc(F)c1C1SCc2nc3ccccc3n21 | TIBO R82150-resistant (RT L100I) | RT-L100I | cytopathic effect / MTT | 2.24 |
| Cc1cn([C@@H]2O[C@H](CO[Si](C)(C)C(C)(C)C)C3(OS(=O)(=O)C=C3N)[C@H]2O[Si](C)(C)C(C)(C)C)c(=O)n(C)c1=O | Quin-0.02(RT-V106A) | RT-V106A | syncytia | 27.5 |
| CN1C(=O)N(Cc2ccccc2)S(=O)(=O)c2cscc21 | IIIB | RT-K103N | syncytia | >141 |
| CCn1c(=O)c(C)cn([C@@H]2O[C@H](CO[Si](C)(C)C(C)(C)C)C3(OS(=O)(=O)C=C3N)[C@H]2O[Si](C)(C)C(C)(C)C)c1=O | IIIB TIBO R82913 STR-B22 (RT L100I Y188H) | RT-L100I Y188H | syncytia | >1670 |
| COc1ccc2c(c1)N(C(=O)OC(C)C)[C@@H](CSC)C(=S)N2 | IIIB | RT-L100I | p24 | 2 |
| Cc1cn([C@@H]2O[C@H](CO[Si](C)(C)C(C)(C)C)C3(OS(=O)(=O)C=C3N)[C@H]2O[Si](C)(C)C(C)(C)C)c(=O)n(C)c1=O | IIIB | RT-K103N | cytopathic effect / XTT | 7.33 |
| N#CCN1C(=O)N(Cc2cccc(F)c2)S(=O)(=O)c2cscc21 |  | RT-L100I | syncytia | 4.83 |
| Cc1ccnc(N2C(=O)CSC2c2c(Cl)cccc2Cl)n1 |  | RT-Y181C | cytopathic effect | 137.8 |
| CC(C)=CCOc1cc(NC(=S)c2ccoc2C)ccc1Cl | IIIB | RT-Y181C | cytopathic effect | 7.5 |
| C=C(C)OC(=O)N1c2cc(Cl)ccc2NC(=S)C1(C)C | HEPT (RT Y188H) | RT-Y188H | syncytia | 78.6 |
| O=C1N(Cc2ccccc2)c2cscc2S(=O)(=O)N1Cc1ccccc1 | IIIB | RT-E138K | syncytia | ≥5.56 |
| Nc1ccn([C@H]2CC[C@@H](CO)O2)c(=O)n1 | IIIB TIBO R82913 STR-B02 (RT L100I E138K) | RT-L100I E138K | syncytia | 0.3 |
| C[C@H](COc1cc(N)nc(N)n1)OCP(=O)(O)O | Clinical isolate C20 | RT-M41L D67N V118I M184V L210W T215Y | syncytia | 3.78 |
| Cc1cc(C)nc(N2C(=O)CSC2c2c(Cl)cccc2Cl)n1 |  | RT-Y188H | cytopathic effect | 316 |
| CC(C)=CCN1Cc2cc(Cl)cc3[nH]c(=S)n(c23)C[C@@H]1C | IIIB | RT-Y181C | p24 | 100 |
| CCOCn1c(Cc2ccccc2)c(C(C)C)c(=O)[nH]c1=O | E-2 (RT-V106A) | RT-V106A | cytopathic effect | 5 |
| CC(C)=CCOc1cc(NC(=S)c2ccsc2C)ccc1Cl | IIIB | RT-Y181C | cytopathic effect | 4.67 |
| CC(C)=CCOc1cc(NC(=S)c2ccoc2C)ccc1Cl | Y-1 (RT-K103N) | RT-K103N | cytopathic effect | 20 |
| Fc1cccc(Cl)c1C1OCc2nc3ccccc3n21 | TSAO-resistant (RT E138K) | RT-E138K | cytopathic effect / MTT | ≥3.86 |
| COc1cc(C)nc(N2C(=O)CSC2c2c(Cl)cccc2Cl)n1 |  | RT-Y181C | cytopathic effect | 164.6 |
| CCn1c(=O)c(C)cn([C@@H]2O[C@H](CO[Si](C)(C)C(C)(C)C)C3(OS(=O)(=O)C=C3N)[C@H]2O[Si](C)(C)C(C)(C)C)c1=O | IIIB | RT-C181I | syncytia | >833 |

Repeating the final 8 entries:

Cc1cc(C)nc(N2C(=O)CSC2c2c(Cl)cccc2Cl)n1 ; changes: RT-Y188H ; read by: cytopathic effect ; value: 316
CC(C)=CCN1Cc2cc(Cl)cc3[nH]c(=S)n(c23)C[C@@H]1C ; strain or isolate: IIIB ; changes: RT-Y181C ; read by: p24 ; value: 100
CCOCn1c(Cc2ccccc2)c(C(C)C)c(=O)[nH]c1=O ; strain or isolate: E-2 (RT-V106A) ; changes: RT-V106A ; read by: cytopathic effect ; value: 5
CC(C)=CCOc1cc(NC(=S)c2ccsc2C)ccc1Cl ; strain or isolate: IIIB ; changes: RT-Y181C ; read by: cytopathic effect ; value: 4.67
CC(C)=CCOc1cc(NC(=S)c2ccoc2C)ccc1Cl ; strain or isolate: Y-1 (RT-K103N) ; changes: RT-K103N ; read by: cytopathic effect ; value: 20
Fc1cccc(Cl)c1C1OCc2nc3ccccc3n21 ; strain or isolate: TSAO-resistant (RT E138K) ; changes: RT-E138K ; read by: cytopathic effect / MTT ; value: ≥3.86
COc1cc(C)nc(N2C(=O)CSC2c2c(Cl)cccc2Cl)n1 ; changes: RT-Y181C ; read by: cytopathic effect ; value: 164.6
CCn1c(=O)c(C)cn([C@@H]2O[C@H](CO[Si](C)(C)C(C)(C)C)C3(OS(=O)(=O)C=C3N)[C@H]2O[Si](C)(C)C(C)(C)C)c1=O ; strain or isolate: IIIB ; changes: RT-C181I ; read by: syncytia ; value: >833